Compound potency records, mixed from different reports. Data source: NIAID ChemDB in PubChem.

All rows: tests in culture; species: HIV-1; measure: fold resistance

Fold resistance has wild type as its base.

{"compound": "CC(C)=CCN1Cc2cc(Cl)cc3[nH]c(=S)n(c23)C[C@@H]1C", "mutations": "RT-E138A S162C E169D T200A L214F", "strain": "HXB2 (RT E138A S162C E169D T200A L214F) Clinical isolate", "cells": "MT-4", "method": "cytopathic effect / MTT", "value": "9"}
{"compound": "C[C@@H](NC(=S)Nc1ccc(Cl)cn1)c1cccc2ccccc12", "mutations": "RT-Y181C", "strain": "A17", "cells": "PBMC", "method": "p24", "value": "8.6"}
{"compound": "CCc1c(C)[nH]c(=O)c(N(C)C)c1C(=O)c1cc(C)cc(C)c1", "mutations": "RT-E138K", "cells": "MT-4", "method": "cytopathic effect / MTT", "value": "1.25"}
{"compound": "CCN[C@H]1CO[C@@H]2OCC[C@H](OC(=O)N[C@@H](Cc3ccccc3)[C@H](O)CN(CC(C)C)S(=O)(=O)c3ccc4nc(NC5CC5)sc4c3)[C@@H]21", "mutations": "L10F M46I I54V V82A", "strain": "NL4-3", "cells": "MT-4", "method": "p24 / luminescence", "value": "1.2"}
{"compound": "CC(C)CN(C[C@@H](O)[C@H](Cc1ccccc1)NC(=O)O[C@H]1CCOC1)S(=O)(=O)c1ccc(N)cc1", "mutations": "PR-D30N A71V", "strain": "NL4-3", "cells": "MT-4", "method": "p24", "value": "0.25"}
{"compound": "CCOCn1c(Cc2ccccc2)c(C(C)C)c(=O)[nH]c1=O", "mutations": "RT-V106A", "strain": "E-2 (RT-V106A)", "cells": "CEM", "method": "cytopathic effect", "value": "5"}
{"compound": "CCc1c(C)[nH]c(=O)c(N(C)C)c1Cc1cccc(/C=C/C#N)c1", "mutations": "RT-Y181C", "cells": "MT-4", "method": "cytopathic effect / MTT", "value": "40"}
{"compound": "Cn1c2ccccc2c2c1cc(C#N)c(=O)n2-c1ccc([N+](=O)[O-])cc1", "mutations": "TAM2 (D67N K70R T215F K219Q)", "strain": "HXB2", "cells": "MT-2", "value": "4.8"}
{"compound": "O=c1[nH]cnc2c1ncn2[C@H]1CC[C@@H](CO)O1", "mutations": "RT-A98S", "strain": "Recombinant mutant", "cells": "MT-4", "method": "cytopathic effect / MTT", "value": "0.3"}
{"compound": "Cc1cn([C@H]2C[C@H](N=[N+]=[N-])[C@@H](CO)O2)c(=O)[nH]c1=O", "mutations": "RT-T139K Y181C Y188D/Y", "strain": "Q-1 (RT T139K Y181C Y188D/Y)", "cells": "CEM", "method": "cytopathic effect", "value": "22"}
{"compound": "Cc1cn([C@@H]2O[C@H](CO[Si](C)(C)C(C)(C)C)C3(OS(=O)(=O)C=C3N)[C@H]2O[Si](C)(C)C(C)(C)C)c(=O)n(C)c1=O", "mutations": "RT-Y181C", "strain": "IIIB E-EBU(RT-Y181C)", "cells": "CEM", "method": "syncytia", "value": ">1670"}
{"compound": "CCOCn1c(Cc2ccccc2)c(C(C)C)c(=O)[nH]c1=O", "mutations": "RT-Y181C", "strain": "HXB2", "method": "cytopathic effect / MTT", "value": "380"}
{"compound": "Nc1ccn([C@H]2C[C@H](O)[C@](CO)(CF)O2)c(=O)n1", "mutations": "RT", "strain": "RTMDR", "cells": "HeLa", "method": "β-galactosidase", "value": "0.848"}
{"compound": "Cc1csc(NC(=S)N[C@H](C)c2cccc3ccccc23)n1", "mutations": "RT-Y181C", "strain": "A17", "cells": "PBMC", "method": "p24", "value": "13.2"}
{"compound": "Cn1c2ccccc2c2c1cc(C#N)c(=O)n2-c1ccc([N+](=O)[O-])cc1", "mutations": "RT-Y188L", "strain": "NNRTI-resistant", "cells": "HeLa", "method": "luciferase", "value": "0.3"}
{"compound": "CCc1c(Sc2cc(C)cc(C)c2)n(COCCOP(=O)(O)OC[C@H]2O[C@@H](n3cc(C)c(=O)[nH]c3=O)C[C@@H]2N=[N+]=[N-])c(=O)[nH]c1=O", "mutations": "RT-Y181C", "strain": "IIIB MKC-442-resistant (RT Y181C)", "cells": "MT-4", "method": "cytopathic effect / MTT", "value": "1"}
{"compound": "CC(=O)O[C@@]12C[C@@H](C)[C@@]3(O)[C@@H](C=C(CO)C[C@]4(O)C(=O)C(C)=C[C@@H]34)[C@@H]1C2(C)C", "mutations": "RT K70R T215Y 69SS A62V E79K V118I M184V E203K L210W", "strain": "NRTI resistant", "cells": "MT-4", "method": "cytopathic effect / MTT", "value": "0.8"}
{"compound": "Cc1cn([C@H]2C[C@H](N=[N+]=[N-])[C@@H](CO)O2)c(=O)[nH]c1=O", "mutations": "RT-D67N K70R K172R", "strain": "IIIB", "cells": "MT-4", "method": "cytopathic effect / MTT", "value": "25.5"}
{"compound": "O=c1[nH]cnc2c1ncn2[C@H]1CC[C@@H](CO)O1", "mutations": "RT-M184I", "strain": "HXB2", "cells": "HELA/CD4 + HELA CD4+", "method": "plaque count", "value": "1.2"}
{"compound": "Cc1cn([C@@H]2O[C@H](CO[Si](C)(C)C(C)(C)C)C3(OS(=O)(=O)C=C3N)[C@H]2O[Si](C)(C)C(C)(C)C)c(=O)n(C)c1=O", "mutations": "RT-E138K", "strain": "IIIB", "cells": "MT-4", "method": "cytopathic effect / MTT", "value": "437"}
{"compound": "O=c1[nH]cnc2c1ncn2[C@H]1CC[C@@H](CO)O1", "mutations": "RT", "strain": "RTMDR", "cells": "HeLa", "method": "β-galactosidase", "value": "3.13"}
{"compound": "CC(C)=CCN1Cc2cc(Cl)cc3[nH]c(=S)n(c23)C[C@@H]1C", "mutations": "RT-V106A", "strain": "IIIB NEV(RT-V106A)", "cells": "CEM", "method": "syncytia", "value": "25"}
{"compound": "Clc1nc(Cl)c2[nH]cnc2n1", "mutations": "RT-P157S", "cells": "CD4+HELA + HeLa", "method": "p24", "value": "0.409"}
{"compound": "Cc1cn([C@H]2C[C@H](N=[N+]=[N-])[C@@H](CO)O2)c(=O)[nH]c1=O", "mutations": "RT-K65R L74V M184V Y115F", "strain": "XM-ABC-resistant", "cells": "MT-4", "method": "p24", "value": "2"}
{"compound": "CN[C@H]1CO[C@@H]2OCC[C@H](OC(=O)N[C@@H](Cc3ccccc3)[C@H](O)CN(CC(C)C)S(=O)(=O)c3ccc4nc(NC5CC5)sc4c3)[C@@H]21", "mutations": "L10I I15V K20R L24I V32I M36I M46I I54V I62V L63P K70Q V82A L88M", "strain": "NL4-3", "cells": "MT-4", "method": "p24 / luminescence", "value": "0.5"}
{"compound": "CCc1c(C)[nH]c(=O)c(N(C)C)c1C(=O)c1cccc(C(C)C#N)c1", "mutations": "RT-Y181C", "cells": "MT-4", "method": "cytopathic effect / MTT", "value": "42"}
{"compound": "COc1c(O)c(I)c2c(c1OC)-c1c(c(I)c(O)c(OC)c1OC)C[C@H](C)[C@H](C)C2", "mutations": "RT-L100I", "strain": "TIBO-resistant L100I (RT-L100I)", "cells": "MT-4", "method": "cytopathic effect / MTT", "value": "2.54"}
{"compound": "CC(C)(C)NC(=O)[C@@H]1C[C@@H]2CCCC[C@@H]2CN1C[C@@H](O)[C@H](Cc1ccccc1)NC(=O)[C@H](CC(N)=O)NC(=O)c1ccc2ccccc2n1", "mutations": "PR-L10I K43T M46L I54L L63P A71T V82A L90M Q92K", "strain": "Clinical isolate", "cells": "PBMC", "method": "p24", "value": "31"}
{"compound": "CCc1cc(NCc2nc3c(Cl)ccc(Cl)c3o2)c(=O)[nH]c1C", "mutations": "RT-A98G", "strain": "NL4-3", "cells": "MT-4", "method": "p24", "value": "8"}
{"compound": "CCOCn1c(Cc2ccccc2)c(CC)c(=O)[nH]c1=O", "mutations": "RT-Y181C", "strain": "IIIB PYR(RT-Y181C)", "cells": "CEM", "method": "syncytia", "value": "27.5"}
{"compound": "CC(=O)c1ccc(C)cc1NC(C(N)=O)c1c(Cl)cccc1Cl", "mutations": "RT-A98S E138A", "strain": "Recombinant mutant", "cells": "MT-4", "method": "cytopathic effect / MTT", "value": "2.1"}
{"compound": "Cc1cn([C@H]2C[C@H](N=[N+]=[N-])[C@@H](CO)O2)c(=O)[nH]c1=O", "mutations": "RT-L100I", "strain": "TIBO-resistant L100I (RT-L100I)", "cells": "MT-4", "method": "cytopathic effect / MTT", "value": "0.2"}
{"compound": "CC(C)CN(C[C@@H](O)[C@H](Cc1ccccc1)NC(=O)O[C@H]1CCOC1)S(=O)(=O)c1ccc(N)cc1", "mutations": "L10I M46L I54V V82A", "strain": "NL4-3", "cells": "MT-4", "method": "p24 / luminescence", "value": ">27"}
{"compound": "Nc1nc(NC2CC2)c2ncn([C@H]3C=C[C@@H](CO)C3)c2n1", "mutations": "RT-M41L A62V S68N G112S V118I M184V", "strain": "Recombinant", "cells": "HeLa", "method": "luciferase", "value": "0.7"}
{"compound": "CCN[C@H]1CO[C@@H]2OCC[C@H](OC(=O)N[C@@H](Cc3cccc(OC)c3)[C@H](O)CN(CC(C)C)S(=O)(=O)c3ccc4nc(NC(C)C)sc4c3)[C@@H]21", "mutations": "L10I M46L I54V V82A", "strain": "NL4-3", "cells": "MT-4", "method": "p24 / luminescence", "value": "1.3"}
{"compound": "CCc1c(C)[nH]c(=O)c(N(C)C)c1C(=O)c1cccc(/C=C/C#N)c1", "mutations": "RT-Y181C", "cells": "MT-4", "method": "cytopathic effect / MTT", "value": "16"}
{"compound": "Cc1c(O)cccc1C(=O)N[C@@H](CSc1ccccc1)[C@H](O)CN1C[C@H]2CCCC[C@H]2C[C@H]1C(=O)NC(C)(C)C", "mutations": "PR-L10I V11I T12E I15V L19I R41K M46L L63 A71T V82A L90M", "strain": "Clinical isolate", "cells": "PBMC", "method": "p24", "value": "3.91"}
{"compound": "Cc1ccc(NC(=S)N[C@H](C)c2cccc3ccccc23)nc1", "mutations": "RT-L74V V106A T215Y", "strain": "RT multidrug-resistant (L74V V106A T215Y)", "cells": "PBMC", "method": "p24", "value": "0.3"}
{"compound": "Cc1cn([C@H]2C[C@H](N=[N+]=[N-])[C@@H](CO)O2)c(=O)[nH]c1=O", "mutations": "8374-P36", "strain": "IIIB", "cells": "MT-2", "method": "ATP", "value": "0.4"}
{"compound": "CCOCn1c(Sc2ccccc2)c(CC)c(=O)[nH]c1=S", "mutations": "RT-Y188H", "strain": "IIIB HEPT-resistant (RT Y188H)", "cells": "CEM", "method": "syncytia", "value": "≥5000"}
{"compound": "CC(C)c1nc(CN(C)C(=O)N[C@H](C(=O)N[C@@H](Cc2ccccc2)C[C@H](O)[C@H](Cc2ccccc2)NC(=O)OCc2cncs2)C(C)C)cs1", "mutations": "PR-L10I V11I T12E I15V L19I R41K M46L L63 A71T V82A L90M", "strain": "Clinical isolate", "cells": "PBMC", "method": "p24", "value": ">23"}
{"compound": "C[C@@H](NC(=S)Nc1ccc(Br)cn1)c1cccc2ccccc12", "mutations": "RT-L74V V106A T215Y", "strain": "RT multidrug-resistant (L74V V106A T215Y)", "cells": "PBMC", "method": "p24", "value": "1"}
{"compound": "CCOC(=O)/C=C/c1cccc(C(=O)c2c(CC)c(C)[nH]c(=O)c2N(C)C)c1", "mutations": "RT-Y181C", "cells": "MT-4", "method": "cytopathic effect / MTT", "value": "52.6"}
{"compound": "CCc1c(Sc2cc(C)cc(C)c2)n(COCCO)c(=O)[nH]c1=O", "mutations": "RT-D67N K70R K172R", "strain": "IIIB", "cells": "MT-4", "method": "cytopathic effect / MTT", "value": "2"}
{"compound": "CC(C)Nc1cccnc1N1CCN(C(=O)c2cc3cc(NS(C)(=O)=O)ccc3[nH]2)CC1", "mutations": "RT-T139K Y181C Y188D/Y", "strain": "Q-1 (RT T139K Y181C Y188D/Y)", "cells": "CEM", "method": "cytopathic effect", "value": "367"}
{"compound": "O=c1[nH]cnc2c1ncn2[C@H]1CC[C@@H](CO)O1", "mutations": "RT-L74V T215Y", "strain": "HIVRTMF (RT L74V)", "cells": "HT4 + HT4 LacZ-1", "method": "plaque count", "value": "7.14"}
{"compound": "C/C=C/c1cccc(C(=O)c2c(CC)c(C)[nH]c(=O)c2N(C)C)c1", "mutations": "RT-K103N", "cells": "MT-4", "method": "cytopathic effect / MTT", "value": "31.6"}
{"compound": "O=c1[nH]cnc2c1ncn2[C@H]1CC[C@@H](CO)O1", "mutations": "RT-K65R L74V M184V Y115F", "strain": "XM-ABC-resistant", "cells": "MT-4", "method": "p24", "value": "7.5"}
{"compound": "Cc1ccc(S(=O)(=O)N(CC(C)C)C[C@@H](O)[C@H](Cc2ccccc2)NC(=O)O[C@H]2CO[C@H]3OCC[C@H]32)cc1", "mutations": "K112M K113E V128I M200I H219P", "strain": "IIIB", "cells": "MT-2", "method": "p24 / ELISA", "value": "3.7"}
{"compound": "C#C[C@]1(CO)O[C@@H](n2cc(C)c(=O)[nH]c2=O)C[C@@H]1O", "mutations": "RT-M184I", "cells": "HeLa", "method": "β-galactosidase", "value": "0.389"}
{"compound": "CCNc1cccnc1N1CCN(C(=O)c2cc3cc(OC)ccc3[nH]2)CC1", "mutations": "RT-Y181C", "strain": "IIIB E-EBU(RT-Y181C)", "cells": "CEM", "method": "syncytia", "value": "450"}
{"compound": "CCc1c(C)[nH]c(=O)c(N(C)C)c1C(=O)c1cc(Cl)cc(Cl)c1", "mutations": "RT-K101E", "cells": "MT-4", "method": "cytopathic effect / MTT", "value": "6"}

The first 5 rows once more:

compound | mutations | strain | cells | method | value
CC(C)=CCN1Cc2cc(Cl)cc3[nH]c(=S)n(c23)C[C@@H]1C | RT-E138A S162C E169D T200A L214F | HXB2 (RT E138A S162C E169D T200A L214F) Clinical isolate | MT-4 | cytopathic effect / MTT | 9
C[C@@H](NC(=S)Nc1ccc(Cl)cn1)c1cccc2ccccc12 | RT-Y181C | A17 | PBMC | p24 | 8.6
CCc1c(C)[nH]c(=O)c(N(C)C)c1C(=O)c1cc(C)cc(C)c1 | RT-E138K |  | MT-4 | cytopathic effect / MTT | 1.25
CCN[C@H]1CO[C@@H]2OCC[C@H](OC(=O)N[C@@H](Cc3ccccc3)[C@H](O)CN(CC(C)C)S(=O)(=O)c3ccc4nc(NC5CC5)sc4c3)[C@@H]21 | L10F M46I I54V V82A | NL4-3 | MT-4 | p24 / luminescence | 1.2
CC(C)CN(C[C@@H](O)[C@H](Cc1ccccc1)NC(=O)O[C@H]1CCOC1)S(=O)(=O)c1ccc(N)cc1 | PR-D30N A71V | NL4-3 | MT-4 | p24 | 0.25

An empty or dashed field is not shown. Lines come from different laboratories, so protocols vary.